The results in this text go back to patent US4029881A, “Antibiotic 9-acyl-3"-thiomethoxymethyl-SF-837 composition and process for preparing the same” (Meiji Seika Co., Ltd., priority 1972, dated 1977).

A short description of the series: panel tests on the bitter taste. As to conditions: 10% by weight dry syrup in sucrose, 100-200 mg each; 10 persons; 0 undetectable, 1 negligible, 2 bitter (acceptable), 3 bitter (unacceptable), 4 bitter (objectionable).
Turning to `CCC(=O)OC1CC(=O)OC(C)CC=CC=CC(OC(C)=O)C(C)CC(CC=O)C(OC2OC(C)C(OC3CC(C)(O)C(OC(=O)CC)C(C)O3)C(N(C)C)C2O)C1OC` (stereo not shown) [9-Acetyl-SF-837, reference compound], the “Mean Scores (bitter taste)” value is 2.8 point.
Take `CCC(=O)OC1CC(=O)OC(C)CC=CC=CC(OC(C)=O)C(C)CC(CC=O)C(OC2OC(C)C(OC3CC(C)(OCSC)C(OC(=O)CC)C(C)O3)C(N(C)C)C2O)C1OC` (stereo not shown) [9-acetyl-3"-thiomethoxymethyl-SF-837]: the “Mean Scores (bitter taste)” value was found to be 0.2 point.
For `CCC(=O)OC1C=CC=CCC(C)OC(=O)CC(OC(=O)CC)C(OC)C(OC2OC(C)C(OC3CC(C)(OCSC)C(OC(=O)CC)C(C)O3)C(N(C)C)C2O)C(CC=O)CC1C` (stereo not shown) [9-propionyl-3"-thiomethoxymethyl-SF-837] the value was 0.2 point.
For the compound `CO[C@@H]1[C@@H](O[C@@H]2O[C@H](C)[C@@H](O[C@H]3C[C@@](C)(O)[C@@H](OC(=O)CC(C)C)[C@H](C)O3)[C@H](N(C)C)[C@H]2O)[C@@H](CC=O)C[C@@H](C)[C@@H](O)/C=C/C=C/C[C@@H](C)OC(=O)C[C@H]1O` [Leucomycin], the “Mean Scores (bitter taste)” value is 1.9 point.
